# Vif 1203: effect of single changes on growth against APOBEC3G

Values reported by Langley et al. 2025, preprint (doi:10.1101/2025.10.20.683452).

Protein: Vif of HIV-1 1203 (a subtype B primary isolate). Residues 12-115 were scanned and are shown below; the first letter is residue 12.
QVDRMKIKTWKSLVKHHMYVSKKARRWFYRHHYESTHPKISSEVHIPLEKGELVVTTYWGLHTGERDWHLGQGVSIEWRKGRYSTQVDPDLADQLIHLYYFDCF

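Pooled viruses with one designed change each in Vif went through two 72 h rounds in SupT1 cells expressing APOBEC3G. Each of three replicates was sequenced after round two and set against the merged round-one pool. Changes do not touch integrase, since the pol overlap was removed.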

Values are log2 enrichment relative to wild type (0); lower means weaker defence against APOBEC3G and poorer growth. A change reads original residue, position, new residue. The median of three replicates is given, with the replicates in brackets. Input reads are the counts in the merged round-one pool, before selection. Not every substitution is listed. Positive scores are uncertain; some enriched variants did not exclude APOBEC3G in a separate test. Replicates agree only moderately (rank correlation about 0.4-0.65); scores from under about 50 input reads tend to be too high.

change,input reads,median log2 enrichment
L81F,292,-4.36 (-4.51 / -4.36 / -3.48)
L81I,63,3.44 (5.05 / -0.09 / 3.44)
L81K,21,-0.20 (4.85 / -0.59 / -0.20)
L81N,19,3.23 (3.23 / -2.78 / 3.96)
L81P,24,0.65 (0.65 / 4.89 / -0.39)
L81V,29,-1.94 (-1.94 / -3.37 / -1.40)
L81W,40,-0.27 (-1.66 / 4.44 / -0.27)
G82C,213,-1.51 (-2.87 / 1.85 / -1.51)
G82D,66,-0.62 (-0.40 / -2.86 / -0.62)
G82F,408,-2.87 (-2.87 / 1.41 / -3.00)
G82H,379,0.79 (1.64 / -2.20 / 0.79)
G82I,368,1.04 (-1.76 / 1.43 / 1.04)
G82N,161,-2.46 (-2.46 / -2.92 / 1.41)
G82Q,313,-1.46 (0.22 / -2.16 / -1.46)
G82R,190,-2.14 (-3.35 / 3.21 / -2.14)
G82W,448,-3.11 (-4.23 / -3.11 / -1.88)
Q83C,212,-1.76 (-2.41 / -1.76 / -1.26)
Q83E,81,-0.15 (3.90 / -1.07 / -0.15)
Q83H,466,-2.70 (-2.70 / -2.76 / -2.52)
Q83K,1388,-0.35 (-0.35 / 0.21 / -1.95)
Q83L,36,-0.43 (0.13 / -2.03 / -0.43)
Q83P,176,-2.42 (-4.47 / -2.42 / -1.61)
Q83R,869,-1.84 (-1.46 / -2.40 / -1.84)
Q83S,204,-2.27 (-2.81 / -0.54 / -2.27)
G84A,273,-2.23 (-2.76 / 1.06 / -2.23)
G84D,488,-1.62 (-1.06 / -2.01 / -1.62)
G84E,17,-2.17 (-2.70 / 0.24 / -2.17)
G84F,761,-1.71 (1.68 / -1.71 / -2.12)
G84Q,150,-1.72 (-1.72 / -2.50 / 0.79)
G84R,53,-1.37 (-1.51 / -1.37 / -0.98)
G84S,72,-3.03 (-4.75 / -3.03 / -2.64)
G84V,161,-2.21 (-2.74 / -1.86 / -2.21)
G84Y,509,-1.91 (0.03 / -2.38 / -1.91)
V85D,21,-2.85 (-3.02 / -2.85 / -2.37)
V85E,270,-1.77 (-2.15 / -1.45 / -1.77)
V85F,271,-1.86 (-1.92 / -1.86 / -1.63)
V85G,21,-0.52 (5.75 / -0.52 / -0.78)
V85H,264,-2.55 (-2.55 / -3.01 / -1.13)
V85I,34,-0.53 (-0.53 / -1.94 / 3.87)
V85K,31,-0.59 (-0.76 / -0.59 / 4.73)
V85L,193,-1.80 (-1.80 / -4.43 / 1.56)
V85P,294,-2.24 (-2.55 / -1.98 / -2.24)
V85R,600,-2.42 (-3.74 / 0.81 / -2.42)
V85T,536,-1.32 (-1.32 / -1.71 / 3.79)
V85Y,423,-1.91 (-2.27 / 1.42 / -1.91)
S86C,49,-1.42 (-1.42 / -4.05 / -0.50)
S86F,22,1.72 (4.05 / 0.26 / 1.72)
S86G,208,-2.04 (-0.74 / -2.04 / -2.28)
S86H,332,-2.33 (-3.27 / -2.15 / -2.33)
S86K,52,1.47 (1.47 / 4.72 / -0.05)
S86N,572,-3.00 (-3.00 / -2.22 / -3.11)
S86Y,1051,-1.72 (-2.03 / -1.72 / -1.45)
I87C,228,-2.18 (-2.18 / -2.54 / -1.78)
I87P,127,-2.77 (-2.77 / -5.40 / -2.70)
I87Q,67,-4.11 (-0.42 / -4.48 / -4.11)
I87R,497,-0.23 (-0.23 / -0.11 / -0.72)
I87T,218,0.12 (0.12 / 1.85 / -1.90)
I87V,44,-3.88 (-4.06 / -3.88 / -3.51)
E88A,285,-2.20 (-2.23 / -2.20 / -1.64)
E88D,47,-0.54 (-1.36 / -0.54 / 4.44)
E88H,1803,-2.05 (-2.05 / -2.65 / -1.59)
E88Q,47,-2.58 (-2.58 / -2.42 / -3.58)
E88R,29,0.60 (0.60 / -0.51 / 4.82)

9 of these entries, quoted again:

| change | input reads | median log2 enrichment |
|---|---|---|
| E88Q | 47 | -2.58 (-2.58 / -2.42 / -3.58) |
| Q83K | 1388 | -0.35 (-0.35 / 0.21 / -1.95) |
| Q83C | 212 | -1.76 (-2.41 / -1.76 / -1.26) |
| G82D | 66 | -0.62 (-0.40 / -2.86 / -0.62) |
| E88R | 29 | 0.60 (0.60 / -0.51 / 4.82) |
| Q83E | 81 | -0.15 (3.90 / -1.07 / -0.15) |
| G84F | 761 | -1.71 (1.68 / -1.71 / -2.12) |
| V85D | 21 | -2.85 (-3.02 / -2.85 / -2.37) |
| G82H | 379 | 0.79 (1.64 / -2.20 / 0.79) |